From patent US20210255174

Test system: SNAPtide (FITC/DABCYL), List Biological Laboratories product #521

Substance: BoNT/A complex (intact BoNT/A toxin complex, Metabiologics)
- Km of the immobilized enzyme against the free enzyme: The Km of the immobilized enzyme is 3.2-fold lower than for the free enzyme
